The values that follow come from paper PMC12609799, “Novel Dual-Coenzyme Specificity and Thermostability of Malate Dehydrogenase Identified in the Cyanobacterium Microcystis aeruginosa PCC7806” (International Journal of Molecular Sciences, 2025).

Series [1] deals with NC(=O)C1=CN([C@@H]2O[C@H](COP(=O)(O)OP(=O)(O)OC[C@H]3O[C@@H](n4cnc5c(N)ncnc54)[C@H](O)[C@@H]3O)[C@@H](O)[C@H]2O)C=CC1. As to the kind of experiment: purified protein. To be noted: oxaloacetate reduction, 100 mM Tris-HCl pH 8.0, 25 °C, apparent, varied: cofactor.
Series [2] relates to NC(=O)C1=CN([C@@H]2O[C@H](COP(=O)(O)OP(=O)(O)OC[C@H]3O[C@@H](n4cnc5c(N)ncnc54)[C@H](OP(=O)(O)O)[C@@H]3O)[C@@H](O)[C@H]2O)C=CC1. As to the kind of experiment: purified protein. To be noted: oxaloacetate reduction, 100 mM Tris-HCl pH 8.0, 25 °C, apparent, varied: cofactor.

The term Km denotes the concentration of substrate that gives half-maximal velocity. As a reminder, the kcat is the maximal rate divided by the concentration of active sites. In general, kcat/Km refers to the second-order rate constant that governs catalysis at low substrate concentration. “MaMDH (Ma7806MDH) (Microcystis aeruginosa PCC 7806SL; D44G/G48S/I45S)”: in series [1], the Km stood at 179.600 ± 11.60 µM and the kcat is 22.5 s⁻¹. Besides, in series [2], the Michaelis constant (Km) turned out to be 38.230 ± 1.58 µM and the kcat/Km was 635000 M⁻¹ s⁻¹.
Regarding “MaMDH (Ma7806MDH) (Microcystis aeruginosa PCC 7806SL; D44G)”, in series [1], the kcat was determined as 22.4 s⁻¹ and the kcat/Km was determined as 855000 M⁻¹ s⁻¹. In addition, in series [2], the Michaelis constant (Km) amounted to 147.700 ± 12.04 µM and the kcat/Km was 106000 M⁻¹ s⁻¹.
As to “MaMDH (Ma7806MDH) (Microcystis aeruginosa PCC 7806SL; D44G/G48S/H47R/I45S/L49F/P50Q/V46E)”, in series [1], the Km came out at 136.400 ± 6.31 µM and the kcat was found to be 46.1 s⁻¹. For the same substance, in series [2], the Km turned out to be 43.110 ± 3.22 µM and the kcat/Km was 1.26e+06 M⁻¹ s⁻¹.
“MaMDH (Ma7806MDH) (Microcystis aeruginosa PCC 7806SL; D44G/G48S/H47R/I45S)”: in series [1], the Km was 177.000 ± 4.83 µM and the kcat is 27.1 s⁻¹. In addition, in series [2], the Km was determined as 25.880 ± 1.13 µM and the kcat/Km was found to be 1.03e+06 M⁻¹ s⁻¹.
